Source: patent publication US20150218599A1, “METHODS FOR PRODUCTION OF ALCOHOLS FROM CARBOXYLIC ACIDS VIA FERMENTATION” (Cornell University, priority 2012, published 2015)
Several values for one entry are separate records, joined by “and”; a condition that tells them apart may be missing. Equal entries are not always repeated.

System: C. ragsdalei P11
Test: Carboxylic acid reduction in batch cultures with constant syngas supply
Assay type: cell-based, Clostridium ragsdalei
Conditions: 15 mM carboxylic acid
Procedure: All chemicals were purchased from Sigma-Aldrich, St. Louis, Mo., unless stated otherwise. Bacterial strain and growth conditions. Most experiments were conducted with C. ljungdahlii ERI-2 (ATTC 55380), which has been used successfully for syngas to ethanol fermentation. Some experiments were repeated with C. ragsdalei P11 (ATTC BAA-622). Bacteria were grown anaerobically at 35° C. in medium designed for efficient syngas fermentation. This medium is mostly based on ATCC medium 1754 but contains higher concentrations of the macronutrient elements. The yeast extract concentration was 0.5 g/L or 0.0 g/L as indicated for each experiment; the concentration of MES (2-(N-morpholino)ethanesulfonic acid) was 150 mM; carboxylic acids (propionic, n-butyric, isobutyric, n-valeric or n-caproic acid) were added to final concentrations of 15 mM before adjustment of the pH to 5.5. The syngas atmosphere was a synthetic blend of 60% [vol/vol]carbon monoxide, 35% hydrogen, and 5% carbon dioxide (Airgas East, Ithaca, N.Y.). Precultures of C. ljungdahlii or C. ragsdalei were grown in 250 ml serum bottles containing 20 ml medium with 0.5 g/L or 0.0 g/L yeast extract (the latter for inoculation of experiments with no yeast extract) and syngas in the headspace at a pressure of 28 psi with finite amounts of syngas. Precultures were maintained in an active state by weekly transfer of 2% into a fresh serum bottle with a headspace of finite syngas.
Experimental setup. The experiments to determine the ability of C. ljungdahlii to reduce propionic acid, n-butyric acid, n-valeric acid, n-caproic acid, or isobutyric acid (2-methyl propionic acid) to the corresponding alcohols were performed in triplicate in 250 ml rubber-stoppered Pyrex glass bottles (Fisher Scientific, Pittsburgh, Pa.), which were used as batch systems in regards to the growth medium, but with constant syngas supply (FIG. 1A). Three stainless steel needles of different length (21 gauge, Becton Dickinson Franklin Lakes, N.J., and ColeParmer, Vernon Hills, Ill.) were punched through each rubber stopper as gas supply, vent, and sample ports. The reactors were filled with 220 mL medium containing 0.5 g/L yeast extract and one of each carboxylic acids at a concentration of 15 mM, autoclaved, and then equipped with fermentation airlocks (www.winemakingsuperstore.com) filled with 5% sulfuric acid to prevent contamination by other microbes or oxygen, and placed in a temperature-controlled recirculating water bath for mechanical agitation using a 15 multi-position IKA magnetic stirrer (Cole-Parmer Vernon Hills, Ill. 60061 USA). […]
Analytical procedures. Cell dry weight concentration in the cultures was determined through measurement of the optical density with a Milton Roy Spectronic 1201 spectrophotometer at a wavelength of 600 nm after determining a correlation coefficient of 242 mg dry weight/(L*OD600nm). The carbon content was calculated using the universal proportion of elements in microbial biomass (C5H7O2N). A gas chromatography system (HP 5890, Hewlett Packard, Palo Alto, Calif.), which was equipped with a 7673 autoinjector and flame ionization detector, was used for the quantification of carboxylic acids and alcohols. […]

SMILES: CCC(=O)O [propionic acid]
- alcohol from carboxylic acid produced at end of experiment: 7.51 mM and 7.51 ± 2.01 mM
- consumed carboxylic acid: 10.39 ± 2.05 mM
- final acetic acid produced at end of experiment: 39.43 ± 8.39 mM
- final ethanol produced at end of experiment: 48.08 ± 24.17 mM
- final pH (start pH 5.5): 5.23 ± 0.15
